A mixed list of measured activities; the numbers were collected in NIAID ChemDB.

Common to all: target-level tests

Blank or dashed fields: not listed here. Conditions beyond the fields shown may differ between rows. Inhibition is in % at the dose shown (toxicity tests: loss of growth or viability). ICn: concentration for n% inhibition.

structure,protein,read by,strain or isolate,dose,endpoint,species,result
Cc1onc(-c2c(N)cccc2Cl)c1C(=O)N[C@H]1[C@@H](OC2C[C@H](CO)[C@@H](O)[C@@H](O)[C@H]2O)O[C@H](CO)[C@@H](O)[C@@H]1O,MYCOTHIOL-S-CONJUGATE AMIDASE,-,-,50 µM,inhibition,Mycobacterium tuberculosis,<10%
Nc1nc(N)nc(-c2ccc(OCc3cccc(Cl)c3)cc2)n1,Dihydrofolate reductase,absorbance,-,-,IC50,Mycobacterium tuberculosis,5.62 µM
CS[C@]1(CO)C(=O)N2[C@H]3C(=CC=C[C@@H]3O)C[C@@]2(SC)C(=O)N1C,MYCOTHIOL-S-CONJUGATE AMIDASE,-,-,-,IC50,Mycobacterium tuberculosis,70 µM
O=c1[nH]c(=O)n([C@H]2C[C@H](O)[C@@H](CO)O2)cc1I,Thymidine monophosphate kinase,-,-,-,IC50,Mycobacterium tuberculosis,33 µM
O=c1oc(/C=C/c2ccccn2)ns1,Proteasome,broth dilution / fluorescence,-,-,IC50,Mycobacterium tuberculosis,2.35 µM
O=C1N=C2SC([N+](=O)[O-])=CN2C2=NC(=S)NC(c3ccccc3C(F)(F)F)C12,CysK1,absorbance,-,100 µM,inhibition,Mycobacterium tuberculosis,10.6%
O=C(CCN1C(=O)/C(=C/c2ccc(OCc3ccccc3)cc2)SC1=S)NNC(=O)c1ccncc1,Pantothenate synthetase,absorbance,-,-,IC50,Mycobacterium tuberculosis,1.54 µM
O=C1N=C2C(C(=O)N=C3SC([N+](=O)[O-])=CN32)C(c2ccccc2O)N1,CysK1,absorbance,-,100 µM,inhibition,Mycobacterium tuberculosis,0%
COC1=C(Br)[C@@H](O)[C@]2(C=C1Br)CC(C(=O)NCCc1[nH]c(N)nc1-c1cc(O)c3[nH]cc(O)c(=O)c3c1O)=NO2,MYCOTHIOL-S-CONJUGATE AMIDASE,-,-,-,IC50,Mycobacterium tuberculosis,3 µM
Cc1ccccc1C1NC(=O)N=C2C1C(=O)N=C1SC([N+](=O)[O-])=CN12,CysK1,absorbance,-,100 µM,inhibition,Mycobacterium tuberculosis,0%
Cc1ccc2c3c1C(CN)OB3OCCO2,Leucyl-tRNA synthetase,radiometric,-,-,IC50,Mycobacterium tuberculosis,0.33 µM
O=C(CCN1C(=O)/C(=C/c2ccc([N+](=O)[O-])cc2)SC1=S)NNC(=O)c1cccc2ccccc12,Pantothenate synthetase,absorbance,-,-,IC50,Mycobacterium tuberculosis,1.4 µM
O=c1[nH]c(=O)n([C@H]2C[C@H](O)[C@@H](CO)O2)cc1C(F)(F)F,Thymidine monophosphate kinase,-,-,-,IC50,Mycobacterium tuberculosis,97 µM
CC(C)C1(C)N=C(c2ncccc2C(=O)O)NC1=O,Acetohydroxyacid synthase,-,-,-,Ki,Mycobacterium avium,>2000 µM
O=c1ccn([C@H]2C[C@H](O)[C@@H](CO)O2)c(=O)[nH]1,Thymidine monophosphate kinase,-,-,-,IC50,Mycobacterium tuberculosis,1020 µM
CCCOc1ccc(Nc2cc(C)nc3ccc(Cl)cc23)cc1,FtsZ,-,H37Rv,-,IC90,Mycobacterium tuberculosis,20.4 µM
Cc1cn([C@@H]2O[C@H](CO)[C@@H](N=[N+]=[N-])[C@@H]2O)c(=O)[nH]c1=O,Thymidylate kinase,-,-,-,Ki,Mycobacterium tuberculosis,215 µM
O=C1N=C2SC([N+](=O)[O-])=CN2C2=NC(=S)NC(c3ccccc3O)C12,CysK1,absorbance,-,100 µM,inhibition,Mycobacterium tuberculosis,31.2%
Cc1[nH]n(-c2ccccc2)c(=O)c1Sc1ccc(Cl)cc1Cl,Phosphopantothenoyl-L-cysteine synthetase,fluorescence,-,-,IC50,Mycobacterium tuberculosis,3.2 µM
O=C(CCN1C(=O)/C(=C/c2ccc(Cl)cc2)SC1=S)NNC(=O)c1ccccc1,Pantothenate synthetase,absorbance,-,-,IC50,Mycobacterium tuberculosis,4.89 µM
[N-]=[N+]=N[C@H]1C[C@H](n2cc(Br)c(=O)[nH]c2=O)O[C@@H]1CO,Thymidine monophosphate kinase,-,-,-,Ki,Mycobacterium tuberculosis,5 µM
O=C(O)c1sc(-c2ccccn2)nc1OCc1cnnn1-c1cc2ccc(O)cc2oc1=O,DNA gyrase,gel / absorbance,-,-,IC50,Mycobacterium tuberculosis,15.8 µM
N[C@@H]1CN(c2c(F)cc3c(=O)c(C(=O)O)cn([C@@H]4C[C@@H]4F)c3c2Cl)CC12CC2,Gyrase (V90A+V94D mutant),-,-,-,IC50,Mycobacterium tuberculosis,144 µg/mL
O=c1oc(CCc2ccccc2)ns1,Proteasome,broth dilution / fluorescence,-,-,IC50,Mycobacterium tuberculosis,>100 µM
O=C(O)Cc1ccc(O)c(Cl)c1,Rv1284,-,Rv1284,-,Ki,Mycobacterium tuberculosis,10.8 µM
O=C1N=C2C(C(=O)N=C3SC([N+](=O)[O-])=CN32)C(c2ccc(Br)cc2)N1,CysK1,absorbance,-,100 µM,inhibition,Mycobacterium tuberculosis,10.9%
O=c1[nH]c(=O)n([C@H]2C[C@H](O)[C@@H](CO)O2)cc1I,Thymidine monophosphate kinase,-,-,-,Ki,Mycobacterium tuberculosis,33.04 µM
O=C(CCN1C(=O)/C(=C/c2ccc(Cl)cc2)SC1=S)NNC(=O)c1cccnc1,Pantothenate synthetase,absorbance,-,-,IC50,Mycobacterium tuberculosis,1.35 µM
Cc1cn([C@@H]2O[C@H](CO)[C@@H](N)[C@H]2F)c(=O)[nH]c1=O,Thymidylate kinase,-,-,-,Ki,Mycobacterium tuberculosis,190 µM
O=c1[nH]c(=O)n([C@H]2C[C@H](O)[C@@H](CO)O2)cc1/C=C/Br,Thymidylate kinase,-,-,-,Ki,Mycobacterium tuberculosis,900 µM
CCN(CC)CCOC(=O)C(Cc1cccc2ccccc12)CC1CCCO1,Pantothenate synthetase,-,-,-,Ki,Mycobacterium tuberculosis,75 µM
COC(=O)c1ccccc1CS(=O)(=O)NC(=O)Nc1nc(OC)cc(OC)n1,Acetohydroxyacid synthase,-,-,-,Ki,Mycobacterium avium,>800 µM
O=C(CCN1C(=O)/C(=C/c2ccc(OCc3ccccc3)cc2)SC1=S)NNC(=O)c1cccnc1,Pantothenate synthetase,absorbance,-,-,IC50,Mycobacterium tuberculosis,0.51 µM
CCN(Cc1ccccc1)C(=O)CN(C)S(=O)(=O)c1cc(Br)cnc1N,Lipoamide dehydrogenase,absorbance,H37Rv,100 µM,inhibition,Mycobacterium tuberculosis,100%
COC(=O)c1ccccc1S(=O)(=O)NC(=O)Nc1nc(C)cc(OC)n1,Acetohydroxyacid synthase,-,-,-,Ki,Mycobacterium tuberculosis,66.7 µM
COC(=O)c1sc(-c2ccccn2)nc1OCc1cnnn1-c1cc2ccc(N)cc2oc1=O,DNA gyrase,gel / absorbance,-,-,IC50,Mycobacterium tuberculosis,0.5 µM
O=c1[nH]c(=O)n([C@H]2C[C@H](O)[C@@H](CO)O2)cc1C(F)(F)F,Thymidine monophosphate kinase,-,-,-,IC50,Mycobacterium tuberculosis,97 µM
CCCCNS(=O)(=O)c1cc(Br)cnc1N,Lipoamide dehydrogenase,absorbance,H37Rv,100 µM,inhibition,Mycobacterium tuberculosis,15%
CC(C)C1(C)N=C(c2nc3ccccc3cc2C(=O)O)NC1=O,Acetohydroxyacid synthase,-,-,-,Ki,Mycobacterium avium,>1000 µM
O[C@H](c1cc(C(F)(F)F)nc2c(C(F)(F)F)cccc12)[C@@H]1CCCCN1,DNA gyrase,gel,-,-,IC50,Mycobacterium tuberculosis,>100 µM
Nc1ncnc2c1c(-c1cccs1)cn2[C@@H]1O[C@H](CO)[C@@H](O)[C@H]1O,Adenosine kinase,-,-,-,IC50,Mycobacterium tuberculosis,6.6 µM
CCC(C)[C@H](NC(=O)N[C@H]1CCCCNC(=O)[C@H](Cc2ccccc2)NC(=O)[C@@H](CC(=O)c2ccccc2NC=O)N(C)C(=O)[C@H](CC(C)C)NC(=O)[C@H](C(C)CC)NC1=O)C(=O)O,Protein tyrosine phosphatase B,-,-,-,IC50,Mycobacterium tuberculosis,8 µM
O=C(CCN1C(=O)/C(=C/c2ccc(OCc3ccccc3)cc2)SC1=S)NNC(=O)c1ccccc1,Pantothenate synthetase,absorbance,-,-,IC50,Mycobacterium tuberculosis,0.79 µM
O=c1oc(Cc2ccccc2C(F)(F)F)ns1,Proteasome,broth dilution / fluorescence,-,-,IC50,Mycobacterium tuberculosis,>100 µM
O=c1[nH]c(=O)n([C@H]2C[C@H](O)[C@@H](COP(=O)(O)O)O2)cc1COCc1ccccc1,Thymidylate kinase,-,-,-,Ki,Mycobacterium tuberculosis,280 µM
Cc1cn([C@@H]2O[C@H](COP(=O)([O-])[O-])[C@@H](O)[C@H]2F)c(=O)[nH]c1=O,Thymidine monophosphate kinase,-,-,-,Ki,Mycobacterium tuberculosis,28.05 µM
Cc1cn([C@H]2C[C@H](N=[N+]=[N-])[C@@H](CO)O2)c(=O)[nH]c1=O,Thymidine monophosphate kinase,-,-,-,IC50,Mycobacterium tuberculosis,28 µM
CCOc1ccc2cc(-n3nncc3COc3nc(-c4cccnc4)sc3C=O)c(=O)oc2c1,DNA gyrase,gel / absorbance,-,-,IC50,Mycobacterium tuberculosis,11.3 µM
CCN(CC)Cc1cc(Nc2ccnc3cc(Cl)ccc23)ccc1O,DNA gyrase,gel,-,-,IC50,Mycobacterium tuberculosis,>100 µM
CCOc1ccc2cc(-n3nncc3COc3nc(-c4ccccn4)sc3C=O)c(=O)oc2c1,DNA gyrase,gel / absorbance,-,-,IC50,Mycobacterium tuberculosis,10.2 µM
O=c1ccc2ncccc2n1CCN1CCC(NCc2cc(Cl)c(Cl)cn2)CC1,DNA gyrase,gel,-,-,IC50,Mycobacterium tuberculosis,10.98 µM
CCOc1ccc2cc(-n3nncc3COc3nc(-c4ccncc4)sc3C(=O)OC)c(=O)oc2c1,DNA gyrase,gel / absorbance,-,-,IC50,Mycobacterium tuberculosis,8.3 µM
Cc1cn([C@H]2C[C@H](CCO)[C@@H](CO)O2)c(=O)[nH]c1=O,Thymidine monophosphate kinase,-,-,-,Ki,Mycobacterium tuberculosis,235.5 µM
CC(=O)N(O)CCCP(=O)(O)O,DXR,-,-,-,IC50,Mycobacterium tuberculosis,0.16 µM
O=C(CCN1C(=O)/C(=C/c2ccc3c(c2)OCO3)SC1=S)NNC(=O)c1cccnc1,Pantothenate synthetase,absorbance,-,-,IC50,Mycobacterium tuberculosis,1.12 µM
C=CN(O)C[C@@H](CCCC)C(=O)N[C@H](C(=O)N(C)C)C(C)(C)C,Peptide deformylase,-,-,-,IC50,Mycobacterium tuberculosis,23.9 µM
Cc1cn([C@H]2C[C@H](N=[N+]=[N-])[C@@H](CO)O2)c(=O)[nH]c1=O,Thymidylate kinase,-,-,-,Ki,Mycobacterium tuberculosis,28 µM
CC1CCCCC1NC(=O)CN(C)S(=O)(=O)c1cccc2cccnc12,Lipoamide dehydrogenase,absorbance,H37Rv,100 µM,inhibition,Mycobacterium tuberculosis,10%
O=c1onc(C(O)c2ccccc2)s1,Proteasome,broth dilution / fluorescence,-,-,IC50,Mycobacterium tuberculosis,>100 µM
O=c1[nH]c(=O)n([C@H]2C[C@H](O)[C@@H](CO)O2)cc1O,Thymidine monophosphate kinase,-,-,-,IC50,Mycobacterium tuberculosis,270 µM
CN(C[C@H](O)[C@H](O)[C@H](O)CO)c1[nH]c(=O)[nH]c(=O)c1[N+](=O)[O-],Lumazine synthase,-,-,-,Ki,Mycobacterium tuberculosis,72.1 µM
C[C@@H](N)[C@H](O)CCCCCCCCCCCCC(=O)CCCCCCCCC[C@@H](O[C@@H]1O[C@H](CO)[C@@H](O)[C@H](O)[C@H]1O)[C@@H](N)CO,MYCOTHIOL-S-CONJUGATE AMIDASE,-,-,-,IC50,Mycobacterium tuberculosis,10 µM
CN(C)c1ccc(C2NC(=S)N=C3C2C(=O)N=C2SC([N+](=O)[O-])=CN23)cc1,CysK1,absorbance,-,100 µM,inhibition,Mycobacterium tuberculosis,0%
CCOc1ccc2cc(-n3nncc3COc3nc(-c4ccccn4)sc3C(=O)O)c(=O)oc2c1,DNA gyrase,gel / absorbance,-,-,IC50,Mycobacterium tuberculosis,11.2 µM
O=c1[nH]c(=O)n([C@H]2C[C@H](O)[C@@H](CO)O2)cc1F,Thymidine monophosphate kinase,-,-,-,Ki,Mycobacterium tuberculosis,212 µM
O=C(O)c1sc(-c2ccncc2)nc1OCc1cnnn1-c1cc2ccc(O)cc2oc1=O,DNA gyrase,gel / absorbance,-,-,IC50,Mycobacterium tuberculosis,14.9 µM
O=c1oc(/C=C/c2c[nH]c3ccccc23)ns1,Proteasome,broth dilution / fluorescence,-,-,IC50,Mycobacterium tuberculosis,1.2 µM

A second listing of 4 rows from above:

structure	protein	read by	strain or isolate	dose	endpoint	species	result
Cc1ccccc1C1NC(=O)N=C2C1C(=O)N=C1SC([N+](=O)[O-])=CN12	CysK1	absorbance	-	100 µM	inhibition	Mycobacterium tuberculosis	0%
O=C1N=C2SC([N+](=O)[O-])=CN2C2=NC(=S)NC(c3ccccc3C(F)(F)F)C12	CysK1	absorbance	-	100 µM	inhibition	Mycobacterium tuberculosis	10.6%
CCOc1ccc2cc(-n3nncc3COc3nc(-c4ccccn4)sc3C(=O)O)c(=O)oc2c1	DNA gyrase	gel / absorbance	-	-	IC50	Mycobacterium tuberculosis	11.2 µM
O=C(CCN1C(=O)/C(=C/c2ccc3c(c2)OCO3)SC1=S)NNC(=O)c1cccnc1	Pantothenate synthetase	absorbance	-	-	IC50	Mycobacterium tuberculosis	1.12 µM